Results of unrelated studies side by side (data: NIAID ChemDB).

All rows: whole-cell or culture tests; agent: HIV-1; read-out: inhibition

Conditions beyond the fields shown may differ between rows. An empty or dashed field is not shown. Percent inhibition refers to the dose given; in toxicity tests it is the harm to the cells.

| compound | cells | read by | strain | conditions | tested at | value |
|---|---|---|---|---|---|---|
| Nc1ncnc2c1ncn2[C@@H](C=O)O[C@@H](C=O)COP(=O)(O)OP(=O)(O)OP(=O)(O)O | Macrophage | p24 / antigen | BaL | - | 100 µM | 80% |
| CC(=O)C1=CN(C(=O)OCC(C)C)C=CC1C#N | MOLT-3 | syncytia | IIIB | - | 50 µM | 0% |
| Nc1ncnc2c1ncn2[C@H]1C[C@@H](CO)O1 | MT-4 | antigen | - | - | 100 µg/mL | >99.9% |
| CC(=O)C1=CN(C(=O)OC(C)C)C=CC1C#N | MOLT-3 | syncytia | IIIB | - | 50 µM | 0% |
| Nc1ccccc1C(=O)N1CCN(C(=O)C(=O)c2c[nH]c3cccc(F)c23)CC1 | HeLa + HELA CD4+/CCR5 | luciferase | - | - | 10 µM | 84% |
| CCOC(=O)/C=C/c1ccc(OC(=O)CCC(=O)Oc2c(C)c(C)c3c(c2C)CC[C@@](C)(CCC[C@H](C)CCC[C@H](C)CCCC(C)C)O3)cc1 | Macrophage + Monocytes/macrophages | - | BaL | - | 10 µM | 55% |
| Nc1ncnc2c1ncn2COCCOP(=O)(O)O[C@@H]1C[C@@H](COP(=O)(O)O[C@@H]2C[C@@H](COP(=O)(O)O[C@@H]3C[C@@H](CO)O[C@H]3n3cnc4c(NCc5ccccc5)ncnc43)O[C@H]2n2cnc3c(N)ncnc32)O[C@H]1n1cnc2c(N)ncnc21 | SupT1 + Sup-T1 | syncytia | - | - | 1 µM | 41% |
| C[C@@H]1CN(C(=O)c2ccccc2)CCN1C(=O)C(=O)c1c[nH]c2c(F)cccc12 | HeLa + HELA CD4+/CCR5 | luciferase | - | - | 10 µM | >98% |
| CCCOC(=O)N1c2ccc3ccccc3c2C=CC1C#N | MOLT-3 | syncytia | IIIB | - | 50 µM | 74.3% |
| CC(C)[C@H](NC(=O)[C@H](CO)NC(=O)[C@H](CS)NC(=O)CCC(=O)NCCCOCCOCCCN)C(=O)N[C@H](C(=O)N[C@@H](CS)C(=O)NCC(=O)O)[C@@H](C)O | PBMC(PHA STIM.) + PBMC | p24 | p13 | - | 0.3 µM | 78% |
| Nc1ccn([C@@H]2CC[C@H](CO)O2)c(=O)n1 | MT-2 | cytopathic effect / MTT | IIIB | - | 0.4 µM | 9% |
| CCCOC(=O)N1C=CC(C#N)C(C(C)=O)=C1 | MOLT-3 | syncytia | IIIB | - | 50 µM | 0% |
| Nc1ncnc2c1ncn2COCCOP(=O)([O-])O[C@@H]1[C@H](O)[C@@H](COP(=O)([O-])O[C@@H]2[C@H](O)[C@@H](COP(=O)([O-])O[C@@H]3[C@H](O)[C@@H](CO)O[C@H]3n3cnc4c(NCc5ccccc5)ncnc43)O[C@H]2n2cnc3c(N)ncnc32)O[C@H]1n1cnc2c(N)ncnc21 | SupT1 + Sup-T1 | syncytia | - | - | 100 µM | 63% |
| C/C=C/C=C/C(=O)[C@@]12O[C@@H]1[C@](C)(O)C(O)=C(C)C2=O | - | RT activity / ELISA | - | - | 200 µg/mL | 63.8% |
| NCCC[C@@H](N)CC(=O)NCN | MT-4 | antigen | IIIB | - | 1 µg/mL | 80% |
| N#CC1C=Cc2c(ccc3ccccc23)N1C(=O)Sc1ccc(Cl)cc1 | MOLT-3 | syncytia | IIIB | - | 50 µM | 0% |
| C[C@H]1CN(C(=O)c2ccccc2)CCN1C(=O)C(=O)c1c[nH]c2cc(Cl)ccc12 | HeLa + HELA CD4+/CCR5 | luciferase | - | - | 10 µM | >98% |
| [N-]=[N+]=N[C@H]1[C@H](n2cnc3c(N)ncnc32)O[C@@H]1CO | MT-4 | antigen | - | - | 10 µg/mL | 25% |
| Nc1ncnc2c1ncn2COCCOP(=O)([O-])O[C@@H]1C[C@@H](COP(=O)([O-])O[C@@H]2C[C@@H](COP(=O)([O-])O[C@@H]3C[C@@H](CO)O[C@H]3n3cnc4c(N)[n+](Cc5ccccc5)cnc43)O[C@H]2n2cnc3c(N)ncnc32)O[C@H]1n1cnc2c(N)ncnc21 | SupT1 + Sup-T1 | syncytia | - | - | 0.1 µM | 29% |
| CC#C[C@]1(O)CC[C@H]2[C@@H]3CCC4=CC(=O)CCC4=C3[C@@H](c3ccc(N(C)C)cc3)C[C@@]21C | CEMx174 | p24 / GFP | NL4-3 | - | 10 µM | 88% |
| Nc1nc(=O)n([C@H]2CC[C@@H](CO)O2)cc1F | MT-2 | cytopathic effect / MTT | IIIB | - | 1.2 µM | 52% |
| COC(=O)c1cccc2c(C(=O)C(=O)N3CCN(C(=O)c4ccccc4)CC3CC(C)C)c[nH]c12 | HeLa + HELA CD4+/CCR5 | luciferase | - | - | 10 µM | 81% |
| Nc1ccn([C@@H]2O[C@H](CO)C=C2F)c(=O)n1 | - | cytopathic effect / MTT | xxBRU | - | 8 µM | 90% |
| Cc1cn(C2CC3C(O)C(C)C3(N=[N+]=[N-])O2)c(=O)[nH]c1=O | H9 | p24 / antigen | IIIB | - | 25 µM | 30% |
| CCCCCCCCCCCCCCCC(=O)OC[C@H]1O[C@@H](n2cnc3c(N)ncnc32)[C@@H]1CO | MT-4 | antigen | - | - | 100 µg/mL | 99.9% |
| CC(C)[C@H](NC(=O)[C@H](CO)NC(=O)[C@@H](N)CS)C(=O)N[C@H](C(=O)N[C@@H](CS)C(=O)NCC(=O)O)[C@@H](C)O | PBMC(PHA STIM.) + PBMC | p24 | IIIB | - | 0.132 µM | 39% |
| N#CC1C=Cc2c(ccc3ccccc23)N1C(=O)c1ccco1 | MOLT-3 | syncytia | IIIB | - | 50 µM | 53.5% |
| C=CCN(CC=C)C(=S)N=Nc1c(O)n(CC=C)c2ccccc12 | H9/HIV-1 + H9 | plaque count | - | chronic infection | 6 µg/mL | 99% |
| COc1ccc(F)c2c(C(=O)C(=O)N3CCN(C(=O)c4ccccn4)C[C@H]3C)c[nH]c12 | HeLa + HELA CD4+/CCR5 | luciferase | - | - | 10 µM | >98% |
| COC(=O)c1c(C(=O)OC)c(Cc2ccccc2)n(C)c1C | PBL | p24 / ELISA | IIIB | - | 10 µM | 2% |
| O=C(O)CCC(CCC(=O)O)(CCC(=O)O)NC(=O)CCC(CCC(=O)NC(CCC(=O)O)(CCC(=O)O)CCC(=O)O)(CCC(=O)NC(CCC(=O)O)(CCC(=O)O)CCC(=O)O)NC(=O)CCCOC(=O)C1(C(=O)OCCCC(=O)NC(CCC(=O)NC(CCC(=O)O)(CCC(=O)O)CCC(=O)O)(CCC(=O)NC(CCC(=O)O)(CCC(=O)O)CCC(=O)O)CCC(=O)NC(CCC(=O)O)(CCC(=O)O)CCC(=O)O)C2c3cc4c5c6c3-c3c(cc7c8c3C6C3c6c-5c(cc5ccc9cc(c-8c3c9c65)C7)C4)C21 | PBMC | cytopathic effect | xxBRU | - | 1.1 µM | 90% |
| N#CC1C=Cc2c(ccc3ccccc23)N1C(=O)Oc1ccccc1 | MOLT-3 | syncytia | IIIB | - | 50 µM | 0% |
| Cc1c(C(=O)O)c(C(=O)c2ccccc2F)c(C)n1C | PBL | p24 / ELISA | IIIB | - | 10 µM | 8% |
| N#CC1C=Cc2c(ccc3ccccc23)N1C(=O)Oc1ccc(Cl)cc1 | MOLT-3 | syncytia | IIIB | - | 50 µM | 0% |
| [N-]=[N+]=NC[C@H]1[C@H](n2cnc3c(N)ncnc32)O[C@@H]1CO | MT-4 | antigen | - | - | 10 µg/mL | 90% |
| COc1cccc2c1C(=O)c1c(O)c3c(c(O)c1C2=O)C[C@@](O)(C(=O)CO)C[C@@H]3O[C@H]1C[C@H](N)[C@@H](O)[C@H](C)O1 | TZM-bl | GFP | - | - | 1 µM | 17% |

The last 4 rows once more:

compound	cells	read by	strain	conditions	tested at	value
Cc1c(C(=O)O)c(C(=O)c2ccccc2F)c(C)n1C	PBL	p24 / ELISA	IIIB	-	10 µM	8%
N#CC1C=Cc2c(ccc3ccccc23)N1C(=O)Oc1ccc(Cl)cc1	MOLT-3	syncytia	IIIB	-	50 µM	0%
[N-]=[N+]=NC[C@H]1[C@H](n2cnc3c(N)ncnc32)O[C@@H]1CO	MT-4	antigen	-	-	10 µg/mL	90%
COc1cccc2c1C(=O)c1c(O)c3c(c(O)c1C2=O)C[C@@](O)(C(=O)CO)C[C@@H]3O[C@H]1C[C@H](N)[C@@H](O)[C@H](C)O1	TZM-bl	GFP	-	-	1 µM	17%